Measurements reported in patent publication EP4759816A1, “UREA-CONTAINING TRICYCLIC ß-LACTAMASE INHIBITOR, PREPARATION METHOD THEREFOR AND USE THEREOF” (priority 2023, dated 2025).

Sequences of proteins named here, by UniProt entry; tags and fusion partners are left off. Residues count along the entry.
UniProt P62593, 24-286 limits assumed: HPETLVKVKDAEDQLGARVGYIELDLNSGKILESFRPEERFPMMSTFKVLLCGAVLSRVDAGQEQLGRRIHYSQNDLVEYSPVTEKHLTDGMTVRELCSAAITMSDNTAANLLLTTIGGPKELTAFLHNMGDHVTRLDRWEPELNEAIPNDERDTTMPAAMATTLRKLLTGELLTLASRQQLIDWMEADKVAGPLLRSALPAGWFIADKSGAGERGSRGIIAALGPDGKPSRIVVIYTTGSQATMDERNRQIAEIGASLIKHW
UniProt Q9F663, 25-293 limits assumed: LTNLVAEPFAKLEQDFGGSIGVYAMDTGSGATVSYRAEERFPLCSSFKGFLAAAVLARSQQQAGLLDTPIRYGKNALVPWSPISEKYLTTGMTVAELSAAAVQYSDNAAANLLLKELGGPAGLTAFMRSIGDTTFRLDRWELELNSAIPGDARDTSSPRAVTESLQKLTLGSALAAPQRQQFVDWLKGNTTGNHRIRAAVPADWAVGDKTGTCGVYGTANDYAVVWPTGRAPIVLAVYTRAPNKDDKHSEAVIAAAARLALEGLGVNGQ
UniProt Q9L4P2, 18-273 limits assumed: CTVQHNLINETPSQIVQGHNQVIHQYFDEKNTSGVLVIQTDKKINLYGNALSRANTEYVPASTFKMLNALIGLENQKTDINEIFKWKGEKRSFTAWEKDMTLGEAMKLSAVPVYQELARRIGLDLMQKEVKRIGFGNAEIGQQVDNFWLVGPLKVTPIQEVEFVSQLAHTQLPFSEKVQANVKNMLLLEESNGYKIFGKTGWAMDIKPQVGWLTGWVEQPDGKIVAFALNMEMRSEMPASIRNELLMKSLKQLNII
UniProt P05364, 21-381 limits assumed: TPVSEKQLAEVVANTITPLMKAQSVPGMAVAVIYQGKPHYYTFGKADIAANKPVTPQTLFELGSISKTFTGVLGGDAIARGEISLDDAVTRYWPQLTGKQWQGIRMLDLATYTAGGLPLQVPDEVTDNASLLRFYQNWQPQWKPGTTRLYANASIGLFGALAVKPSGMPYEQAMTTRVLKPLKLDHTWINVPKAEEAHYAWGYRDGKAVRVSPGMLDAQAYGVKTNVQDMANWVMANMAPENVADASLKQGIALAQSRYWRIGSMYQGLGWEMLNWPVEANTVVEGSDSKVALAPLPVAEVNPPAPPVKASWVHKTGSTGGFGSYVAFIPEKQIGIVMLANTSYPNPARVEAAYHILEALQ

Experiments:
Test in all cases: β-Lactamase inhibitory activity test, nitrocefin substrate
TEM-1 = TEM-1 (Escherichia coli, UniProt P62593); settings: read-out: Inhibitory activity (IC50); TEM-1, enzyme family A; 100 µM nitrocefin, 37°C, 10 minutes preincubation; tested form: Na salt
Method: (§1) The IC50 of β-lactamase inhibitors against β-lactamases was tested using nitrocefin as the substrate. The enzyme and serially diluted β-lactamase inhibitor were incubated in 50 mM phosphate buffer (containing 0.1 mg/mL bovine serum albumin) at 37°C for 10 minutes. The reaction was initiated by adding 100 µM nitrocefin, and the reaction temperature was set to 37°C. The absorbance at 490 nm was recorded every minute for a total of 1 hour. The initial reaction rate was calculated, and the IC50 was calculated using GraphPad Prism software. Table 4. Inhibitory activity (IC50, mg/L) of compounds against β-lactamases

KPC-2 = KPC-2 (Klebsiella pneumoniae, UniProt Q9F663); type: biochemical; settings: read-out: Inhibitory activity (IC50); KPC-2, enzyme family A; 100 µM nitrocefin, 37°C, 10 minutes preincubation; tested form: Na salt
Method: as §1

OXA-23 = OXA-23 (Acinetobacter baumannii, UniProt Q9L4P2); type: biochemical; settings: read-out: Inhibitory activity (IC50); OXA-23, enzyme family D; 100 µM nitrocefin, 37°C, 10 minutes preincubation; tested form: Na salt
Method: as §1

AmpC = AmpC (Enterobacter cloacae, UniProt P05364); settings: read-out: Inhibitory activity (IC50), enzyme family C, 100 µM nitrocefin, 37°C, 10 minutes preincubation, tested form: Na salt

Work on `NC(=O)C1c2c(ccn2S(=O)(=O)c2cccnc2)C2CN1C(=O)N2OS(=O)(=O)O` (stereo not shown) yielded an IC50 (TEM-1) of under 1 µM, an IC50 (KPC-2) of under 1 µM and an IC50 (OXA-23) of 10 to 100 µM. For the same compound, the IC50 (AmpC) was under 1 µM.
